# Several values for one entry are separate records, joined by “and”; a condition that tells them apart may be missing. Identical values can stand only once.
# Biological target: recombinant A(H1N1)pdm09 PAN E23K+I38T (Influenza A virus, UniProt C3W5S0, DEL51-57/DEL61-72/E23K/E59G/I38T)
# Assay: Modified thermofluor assay, BXA-rPAN thermal stabilization
# Details: for SYPRO Orange signal: 37uM BXA
structure (smiles),measurement,setting,value
O=C1c2c(O)c(=O)ccn2N([C@@H]2c3ccccc3SCc3c2ccc(F)c3F)[C@@H]2COCCN12,SYPRO Orange signal,35 °C,6739.42 RFU and 7562.44 RFU and 8463.87 RFU
same,SYPRO Orange signal,36 °C,7390.66 RFU and 7591.98 RFU and 9168.48 RFU
same,SYPRO Orange signal,37 °C,7300.62 RFU and 7900.52 RFU and 9553.25 RFU
same,SYPRO Orange signal,38 °C,7452.24 RFU and 7691.61 RFU and 9382.76 RFU
same,SYPRO Orange signal,39 °C,7595.49 RFU and 7805.73 RFU and 9538.41 RFU
same,SYPRO Orange signal,40 °C,7144.31 RFU and 7745.3 RFU and 9326.61 RFU
same,SYPRO Orange signal,41 °C,7523.62 RFU and 8082.31 RFU and 10056.4 RFU
same,SYPRO Orange signal,42 °C,6553.14 RFU and 8330.03 RFU and 9625.31 RFU
same,SYPRO Orange signal,43 °C,6308.15 RFU and 8153.11 RFU and 9828.59 RFU
same,SYPRO Orange signal,44 °C,6367.9 RFU and 8052.38 RFU and 9686.43 RFU
same,SYPRO Orange signal,45 °C,6024.01 RFU and 8171.95 RFU and 9864.25 RFU
same,SYPRO Orange signal,46 °C,5879.53 RFU and 8246.28 RFU and 9525.18 RFU
same,SYPRO Orange signal,47 °C,5608.16 RFU and 7765.84 RFU and 9654.27 RFU
same,SYPRO Orange signal,48 °C,5852.78 RFU and 8189.7 RFU and 9797.46 RFU
same,SYPRO Orange signal,49 °C,5217.03 RFU and 8390.63 RFU and 10273.6 RFU
same,SYPRO Orange signal,50 °C,5184.36 RFU and 8235.09 RFU and 10294 RFU
same,SYPRO Orange signal,51 °C,5257.82 RFU and 7864.96 RFU and 10148 RFU
same,SYPRO Orange signal,52 °C,5420.42 RFU and 8591.09 RFU and 10383.3 RFU
same,SYPRO Orange signal,54 °C,5418.14 RFU and 8792.52 RFU and 10293.3 RFU
same,SYPRO Orange signal,55 °C,5495.99 RFU and 8870.15 RFU and 10549.4 RFU
same,SYPRO Orange signal,56 °C,6050.58 RFU and 9594.03 RFU and 11019.3 RFU
same,SYPRO Orange signal,57 °C,6826.55 RFU and 10116.3 RFU and 11658.4 RFU
same,SYPRO Orange signal,58 °C,7910.74 RFU and 10957.9 RFU and 12439.3 RFU
same,SYPRO Orange signal,59 °C,8986.83 RFU and 12265.2 RFU and 14132.6 RFU
same,SYPRO Orange signal,60 °C,11443.7 RFU and 14614.9 RFU and 16452.7 RFU
same,SYPRO Orange signal,61 °C,14902 RFU and 17741.5 RFU and 21041 RFU
same,SYPRO Orange signal,62 °C,22268 RFU and 25516.7 RFU and 29825 RFU
same,SYPRO Orange signal,63 °C,33484.1 RFU and 37584.1 RFU and 44091.5 RFU
same,SYPRO Orange signal,64 °C,51752.4 RFU and 56793 RFU and 66753.7 RFU
same,SYPRO Orange signal,65 °C,77812.5 RFU and 83318.4 RFU and 98699.8 RFU
same,SYPRO Orange signal,66 °C,109641 RFU and 115417 RFU and 136698 RFU
same,Tm (°C) with BXA,"A(H1N1)pdm09 PAN E23K+I38T 2 μM, BXA 37 μM",65.0 ± 0.1 °C and 65 °C
same,ΔTm (°C),"A(H1N1)pdm09 PAN E23K+I38T, DMSO vs BXA 37 μM",13.0 ± 0.4 °C
same,SYPRO Orange signal,"Panel A, E23K+I38T, 67 °C",141451 RFU and 147203 RFU and 172603 RFU
same,SYPRO Orange signal,"Panel A, E23K+I38T, 68 °C",168529 RFU and 172839 RFU and 202976 RFU
same,SYPRO Orange signal,"Panel A, E23K+I38T, 69 °C",187743 RFU and 188730 RFU and 221880 RFU
same,SYPRO Orange signal,"Panel A, E23K+I38T, 70 °C",197721 RFU and 197558 RFU and 231373 RFU
same,SYPRO Orange signal,"Panel A, E23K+I38T, 71 °C",201057 RFU and 200198 RFU and 234259 RFU
same,SYPRO Orange signal,"Panel A, E23K+I38T, 72 °C",201492 RFU and 200752 RFU and 233432 RFU
same,SYPRO Orange signal,"Panel A, E23K+I38T, 73 °C",200985 RFU and 201438 RFU and 231795 RFU
same,SYPRO Orange signal,"Panel A, E23K+I38T, 74 °C",199039 RFU and 201234 RFU and 229243 RFU
same,SYPRO Orange signal,"Panel A, E23K+I38T, 75 °C",196836 RFU and 200470 RFU and 226040 RFU
same,SYPRO Orange signal,"Panel A, E23K+I38T, 76 °C",194350 RFU and 199581 RFU and 223044 RFU
same,SYPRO Orange signal,"Panel A, E23K+I38T, 77 °C",191850 RFU and 197962 RFU and 220114 RFU
same,SYPRO Orange signal,"Panel A, E23K+I38T, 78 °C",188492 RFU and 195716 RFU and 216789 RFU
same,SYPRO Orange signal,"Panel A, E23K+I38T, 79 °C",185031 RFU and 192976 RFU and 213095 RFU
same,SYPRO Orange signal,"Panel A, E23K+I38T, 80 °C",181329 RFU and 188975 RFU and 209818 RFU
same,SYPRO Orange signal,"Panel A, E23K+I38T, 81 °C",177076 RFU and 185295 RFU and 205852 RFU
same,SYPRO Orange signal,"Panel A, E23K+I38T, 82 °C",172443 RFU and 180849 RFU and 201702 RFU
same,SYPRO Orange signal,"Panel A, E23K+I38T, 83 °C",168545 RFU and 176621 RFU and 197901 RFU
same,SYPRO Orange signal,"Panel A, E23K+I38T, 84 °C",164747 RFU and 173366 RFU and 192683 RFU
same,SYPRO Orange signal,"Panel A, E23K+I38T, 85 °C",160714 RFU and 167572 RFU and 187865 RFU
same,SYPRO Orange signal,"Panel A, E23K+I38T, 86 °C",156527 RFU and 164357 RFU and 182900 RFU
same,SYPRO Orange signal,"Panel A, E23K+I38T, 87 °C",152514 RFU and 159370 RFU and 178211 RFU
same,SYPRO Orange signal,"Panel A, E23K+I38T, 88 °C",148577 RFU and 156075 RFU and 172520 RFU
same,SYPRO Orange signal,"Panel A, E23K+I38T, 89 °C",144780 RFU and 150636 RFU and 169202 RFU
same,SYPRO Orange signal,"Panel A, E23K+I38T, 90 °C",140567 RFU and 146858 RFU and 164661 RFU
same,SYPRO Orange signal,"Panel A, E23K+I38T, 91 °C",136367 RFU and 142372 RFU and 160897 RFU
same,SYPRO Orange signal,"Panel A, E23K+I38T, 92 °C",132795 RFU and 135894 RFU and 156502 RFU
same,SYPRO Orange signal,"Panel A, E23K+I38T, 93 °C",128384 RFU and 133334 RFU and 151288 RFU
same,SYPRO Orange signal,"Panel A, E23K+I38T, 94 °C",124727 RFU and 130587 RFU and 145672 RFU
same,SYPRO Orange signal,"Panel A, E23K+I38T, 95 °C",117959 RFU and 125850 RFU and 139484 RFU
same,SYPRO Orange signal,"Panel A, E23K+I38T, 96 °C",105632 RFU and 120516 RFU and 129322 RFU
same,SYPRO Orange signal,"Panel A, E23K+I38T, 97 °C",102902 RFU and 114416 RFU and 118292 RFU
same,SYPRO Orange signal,"Panel A, E23K+I38T, 98 °C",98344.9 RFU and 110434 RFU and 111915 RFU
same,SYPRO Orange signal,"Panel A, E23K+I38T, 99 °C",89718.7 RFU and 110586 RFU and 107689 RFU

# Source: article PMC9312377
